# Experimental data taken from patent US7087375B1, “Method for determining the mechanism of HIV RT inhibitors” (priority 2000, dated 2006).
# Like-named read-outs stand apart in the source and are kept apart here.
# What was measured:
# Format in all cases: biochemical
# HIV-1 RT mutant 69S-AG = biological target: T1, HIV-1 RT mutant 69S-AG (Human immunodeficiency virus type 1 group M subtype B, UniProt P04585, INS655SA/T656G/T656S); details: 69S-AG RT
# T1 construct: The final RT products, in a heterodimeric form (p66/p51); made in house; host or cells: E. coli XL1-Blue (vector pKK233-2)
# HIV-1 RT mutant V75T = biological target: T2, HIV-1 RT mutant V75T (Human immunodeficiency virus type 1 group M subtype B, UniProt P04585, V662T)
# T2 construct: The final RT products, in a heterodimeric form (p66/p51); made in house
# [1] = biological target: T3, HIV-1 RT mutant 41/67/70/215 (Human immunodeficiency virus type 1 group M subtype B, UniProt P04585, D654N/K657R/M628L/T802Y); details: 41/67/70/215 RT
# T3 construct: The final RT products, in a heterodimeric form (p66/p51); made in house; host or cells: E. coli XL1-Blue (vector pKK233-2)
# [2] = biological target: T4, HIV-1 RT mutant 41/67/70/184/210/211/214/215 (Human immunodeficiency virus type 1 group M subtype B, UniProt P04585, D654N/K657R/L797W/L801F/M628L/M771V/R798K/T802Y); details: 41/67/70/184/210/211/214/215 RT
# T4 construct: The final RT products, in a heterodimeric form (p66/p51); made in house; host or cells: E. coli XL1-Blue (vector pKK233-2)
# HIV-1 RT mutant Q151M = biological target: T5, HIV-1 RT mutant Q151M (Human immunodeficiency virus type 1 group M subtype B, UniProt P04585, Q738M)
# T5 construct: The final RT products, in a heterodimeric form (p66/p51); made in house
# HIV-1 RT mutant 69S-SG = biological target: T6, HIV-1 RT mutant 69S-SG (Human immunodeficiency virus type 1 group M subtype B, UniProt P04585, INS655SS/T656G/T656S); details: 69S-SG RT
# T6 construct: The final RT products, in a heterodimeric form (p66/p51); made in house; host or cells: E. coli XL1-Blue (vector pKK233-2)
# [3] = biological target: T7, HIV-1 RT mutant 41/67/70/184/215 (Human immunodeficiency virus type 1 group M subtype B, UniProt P04585, D654N/K657R/M628L/M771V/T802Y); details: 41/67/70/184/215 RT
# T7 construct: The final RT products, in a heterodimeric form (p66/p51); made in house; host or cells: E. coli XL1-Blue (vector pKK233-2)
# [4] = no extra additions (without ATP)
substance,measurement,setting,value
d4T-TP,Fold resistance in RT-assay relative to HXB2,HIV-1 RT mutant 69S-AG; ATP 3.2 mM,4.9 +/− 0.2 fold
same,Ki,HIV-1 RT mutant 69S-AG; ATP 3.2 mM,6.2 nM
same,Ki/Km,HIV-1 RT mutant 69S-AG; ATP 3.2 mM,0.049
same,Fold resistance in RT-assay relative to HXB2,HIV-1 RT mutant 69S-AG; without ATP,2.0 +/− 0.4 fold
same,Ki,HIV-1 RT mutant 69S-AG; without ATP,1.9 nM
same,Ki/Km,HIV-1 RT mutant 69S-AG; without ATP,0.016
same,Fold resistance with ATP (RT assay),HIV-1 RT mutant V75T; ATP 3.2 mM,4.0 +/− 0.6 fold
same,Ki,HIV-1 RT mutant V75T; ATP 3.2 mM,6.6 nM
same,Ki/Km,HIV-1 RT mutant V75T; ATP 3.2 mM,0.04
same,Fold resistance (RT assay),HIV-1 RT mutant V75T; without ATP,4.1 +/− 0.6 fold
same,Ki,HIV-1 RT mutant V75T; without ATP,2.6 nM
same,Ki/Km,HIV-1 RT mutant V75T; without ATP,0.033
same,Fold resistance in RT-assay relative to HXB2,[1]; ATP 3.2 mM,2.2 fold
same,Ki,[1]; ATP 3.2 mM,2.8 nM
same,Ki/Km,[1]; ATP 3.2 mM,0.022
same,Fold resistance in RT-assay relative to HXB2,[1]; [4],0.5 fold
same,Ki/Km,[1]; [4],0.004
same,Fold resistance in RT-assay relative to HXB2,[2]; ATP 3.2 mM,2.8 fold
same,Ki,[2]; ATP 3.2 mM,6.9 nM
same,Ki/Km,[2]; ATP 3.2 mM,0.028
same,Fold resistance in RT-assay relative to HXB2,[2]; without ATP,0.9 fold
same,Ki,[2]; without ATP,1.5 nM
same,Ki/Km,[2]; without ATP,0.007
same,Fold resistance with ATP (RT assay),HIV-1 RT mutant Q151M; ATP 3.2 mM,4.0 +/− 0.1 fold
same,Ki,HIV-1 RT mutant Q151M; ATP 3.2 mM,7.1 nM
same,Ki/Km,HIV-1 RT mutant Q151M; ATP 3.2 mM,0.04
same,Fold resistance (RT assay),HIV-1 RT mutant Q151M; without ATP,3.3 +/− 0.9 fold
same,Ki,HIV-1 RT mutant Q151M; without ATP,3 nM
same,Ki/Km,HIV-1 RT mutant Q151M; without ATP,0.026
same,Fold resistance in RT-assay relative to HXB2,HIV-1 RT mutant 69S-SG; ATP 3.2 mM,3.0 +/− 0.6 fold
same,Ki,HIV-1 RT mutant 69S-SG; ATP 3.2 mM,6.8 nM
same,Ki/Km,HIV-1 RT mutant 69S-SG; ATP 3.2 mM,0.03
same,Fold resistance in RT-assay relative to HXB2,HIV-1 RT mutant 69S-SG; without ATP,1.8 +/− 0.2 fold
same,Ki,HIV-1 RT mutant 69S-SG; without ATP,3.7 nM
same,Ki/Km,HIV-1 RT mutant 69S-SG; without ATP,0.015
same,Fold resistance in RT-assay relative to HXB2,[3]; ATP 3.2 mM,3.4 fold
same,Ki,[3]; ATP 3.2 mM,5.2 nM
same,Ki/Km,[3]; ATP 3.2 mM,0.034
same,Fold resistance in RT-assay relative to HXB2,[3]; without ATP,1.0 fold
same,Ki,[3]; without ATP,0.6 nM
same,Ki/Km,[3]; without ATP,0.008
